Source: patent publication US20160024159A1, “Potent and selective inhibitors of Nav1.7” (published 2016)
Where a chain is given by its changes, count along the chain named. Where “and” joins values, the source holds several entries; their conditions need not be identical. Equal values may be shown once.

B1: Pra-[Nle6;Glu12;Lys17]JzTx-V(1-29) (peptide)
peptide: GYCQKWLWTCDSERACCKGLRCKLWCRKII
modifications: not checked
B2: CyA-[Nle6,Pra17,Glu28]JzTx-V(1-29) (peptide)
peptide: AYCQKWLWTCDSKRACCGGLRCKLWCRKEI
modifications: not checked
B3: Pra-[Nle6;Glu11,28]JzTx-V(1-29) (peptide)
peptide: B2 peptide with A1G, S12E, G18E
modifications: not checked
B4: Homodimeric Peptide No. 9 (peptide)
peptide: KAYCQKWLWTCDSKRKCCEGLRCKLWCRKEI
modifications: not checked
B5: Homodimeric Peptide No. 8 (peptide)
peptide: B2 peptide with G18A
modifications: not checked
B6: CyA-[Nle6,Lys(Pra)14,Glu28]JzTx-V(1-29) (peptide)
peptide: B2 peptide with A15K, G18E
modifications: not checked
B7: CyA-[Nle6,Atz(NPEG10)17,Glu28]JzTx-V(1-29) (peptide)
peptide: B2 peptide with G18A
modifications: not checked
B8: Pra-[Nle6;Glu12,28;Lys17]JzTx-V(1-29) (peptide)
peptide: B1 peptide with I29E
modifications: not checked
B9: Pra-[Nle6;Chg23;Glu28]JzTx-V(1-29) (peptide)
peptide: B2 peptide with A1G, G18E, L24G
modifications: not checked
B10: CyA-[Nle6;Pra11;Glu28]JzTx-V(1-29) (peptide)
peptide: B2 peptide with S12G, G18E
modifications: not checked
B11: [Nle6;Pra11;Glu28]JzTx-V(1-29) (peptide)
peptide: YCQKWLWTCDGKRACCEGLRCKLWCRKEI
modifications: not checked
B12: Pra-[Nle6;Glu12,28]JzTx-V(1-29) (peptide)
peptide: B1 peptide with K18E, I29E
modifications: not checked
B13: Glu-[Pra1;Nle6;Glu14,28]JzTx-V(1-29) (peptide)
peptide: EGCQKWLWTCDSKRECCEGLRCKLWCRKEI
modifications: not checked
B14: [Nle6,Pra14]JzTx-V(1-29) (peptide)
peptide: YCQKWLWTCDSKRGCCEGLRCKLWCRKII
modifications: not checked
B15: [Glu7,20;Tyr28]JzTx-V(1-29) (peptide)
peptide: YCQKWMETCDSKRACCEGLECKLWCRKYI
modifications: not checked
B16: [Nle6;Glu20]JzTx-V(1-29) (peptide)
peptide: YCQKWLWTCDSKRACCEGLECKLWCRKII
modifications: not checked
B17: [1-Nal1]JzTx-V(1-29) (peptide)
peptide: ACQKWMWTCDSKRACCEGLRCKLWCRKII
modifications: not checked
B18: [Asn7;Glu20;Tyr28]JzTx-V(1-29) (peptide)
peptide: YCQKWMNTCDSKRACCEGLECKLWCRKYI
modifications: not checked
B19: [Nle6;Atz(NPEG10)22]JzTx-V(1-29) (peptide)
peptide: YCQKWLWTCDSKRACCEGLRCALWCRKII
modifications: not checked
B20: [Atz(NPEG10)17;Glu20]JzTx-V(1-29) (peptide)
peptide: YCQKWMWTCDSKRACCAGLECKLWCRKII
modifications: not checked
B21: [Ala1]JzTx-V(1-29) (peptide)
peptide: ACQKWMWTCDSKRACCEGLRCKLWCRKII
modifications: not checked
B22: [Nle6;Atz(NPEG10)23]JzTx-V(1-29) (peptide)
peptide: YCQKWLWTCDSKRACCEGLRCKAWCRKII
modifications: not checked
B23: [Ser7;Glu20;Tyr28]JzTx-V(1-29) (peptide)
peptide: YCQKWMSTCDSKRACCEGLECKLWCRKYI
modifications: not checked

The binders below were run against T1, human Nav1.7 voltage-gated sodium channel (human), Q15858 (assay: cell-based or functional assay).
With B1 the PX hNav1.7 Tonic IC50 was 1.87 nM.
B2 gave a PX hNav1.7 Tonic IC50 of 0.779 nM.
B3 was tested, and the PX hNav1.7 Tonic IC50 was 1.58 nM.
Work on B4 yielded a PX hNav1.7 Tonic IC50 of 1.32 nM.
B5 gave a PX hNav1.7 Tonic IC50 of 0.679 nM.
Binder B6 has a PX hNav1.7 Tonic IC50 of 1.59 nM.
B7 showed a PX hNav1.7 Tonic IC50 of 11.7 nM.
Work on B8 yielded a PX hNav1.7 Tonic IC50 of 8.76 nM.
For B9, the PX hNav1.7 Tonic IC50 was 0.489 nM.
In the case of B10, the PX hNav1.7 Tonic IC50 is reported as 0.193 nM.
Work on B11 yielded a PX hNav1.7 Tonic IC50 of 0.473 nM.
Binder B12 has a PX hNav1.7 Tonic IC50 of 1.73 nM.
In the case of B13, the PX hNav1.7 Tonic IC50 is reported as 0.563 nM.

What follows are binders tested against mouse Nav1.4 voltage-gated sodium channel (mouse), Q9ER60 (assay: cell-based or functional assay).
With B1 the PX mNav1.4 Tonic IC50 was 2.77 nM and the mNav1.4/mNav1.7 was 2.2.
B2 gave a PX mNav1.4 Tonic IC50 of 32.2 nM and a mNav1.4/mNav1.7 of 6.7.
Binder B3 has a PX mNav1.4 Tonic IC50 of 565 nM and a mNav1.4/mNav1.7 of 34.
Work on B6 yielded a PX mNav1.4 Tonic IC50 of 62.8 nM.
B8 was tested, and the PX mNav1.4 Tonic IC50 was 63 nM and the mNav1.4/mNav1.7 was 14.
B12 gave a PX mNav1.4 Tonic IC50 of 548 nM and a mNav1.4/mNav1.7 of 34.

The binders below were run against rat Nav1.7 voltage-gated sodium channel (rat), O08562 (assay: cell-based or functional assay).
B1 showed a PX rNav1.7 Tonic IC50 of 0.653 nM and a rNav1.7/hNav1.7 of 0.35.
With B2 the PX rNav1.7 Tonic IC50 was 1.41 nM and the rNav1.7/hNav1.7 was 1.81.
Binder B3 has a PX rNav1.7 Tonic IC50 of 1.5 nM and a rNav1.7/hNav1.7 of 0.95.
In the case of B4, the PX rNav1.7 Tonic IC50 is reported as 3.6 nM.
B5 gave a PX rNav1.7 Tonic IC50 of 2.1 nM and a rNav1.7/hNav1.7 of 3.09.
Work on B6 yielded a PX rNav1.7 Tonic IC50 of 2.73 nM.
For B7, the PX rNav1.7 Tonic IC50 was 5.45 nM and the rNav1.7/hNav1.7 was 0.46.
For B8, the PX rNav1.7 Tonic IC50 was 2.01 nM and the rNav1.7/hNav1.7 was 0.23.
B9 was tested, and the PX rNav1.7 Tonic IC50 was 3.27 nM and the rNav1.7/hNav1.7 was 6.68.
B10 was tested, and the PX rNav1.7 Tonic IC50 was 2.24 nM and the rNav1.7/hNav1.7 was 11.6.
Work on B11 yielded a PX rNav1.7 Tonic IC50 of 3.83 nM and a rNav1.7/hNav1.7 of 8.1.
Work on B12 yielded a PX rNav1.7 Tonic IC50 of 2.66 nM and a rNav1.7/hNav1.7 of 1.54.
With B13 the PX rNav1.7 Tonic IC50 was 3.34 nM and the rNav1.7/hNav1.7 was 5.94.

The binders below were run against mouse Nav1.7 voltage-gated sodium channel (mouse), Q62205 (assay: cell-based or functional assay).
With B1 the PX mNav1.7 Tonic IC50 was 1.27 nM and the mNav1.7/hNav1.7 was 0.68.
B2 gave a PX mNav1.7 Tonic IC50 of 4.8 nM and a mNav1.7/hNav1.7 of 6.16.
For B3, the PX mNav1.7 Tonic IC50 was 16.7 nM and the mNav1.7/hNav1.7 was 10.6.
B4 gave a PX mNav1.7 Tonic IC50 of 5.32 nM.
B5 gave a PX mNav1.7 Tonic IC50 of 0.593 nM and a mNav1.7/hNav1.7 of 0.87.
Work on B6 yielded a PX mNav1.7 Tonic IC50 of 9.79 nM.
With B7 the PX mNav1.7 Tonic IC50 was 26.1 nM and the mNav1.7/hNav1.7 was 2.23.
With B8 the PX mNav1.7 Tonic IC50 was 4.4 nM and the mNav1.7/hNav1.7 was 0.5.
For B9, the PX mNav1.7 Tonic IC50 was 0.884 nM and the mNav1.7/hNav1.7 was 1.81.
With B10 the PX mNav1.7 Tonic IC50 was 4.04 nM and the mNav1.7/hNav1.7 was 20.9.
B11 was tested, and the PX mNav1.7 Tonic IC50 was 3.69 nM and the mNav1.7/hNav1.7 was 7.81.
B12 was tested, and the PX mNav1.7 Tonic IC50 was 16.2 nM and the mNav1.7/hNav1.7 was 9.37.
In the case of B13, the PX mNav1.7 Tonic IC50 is reported as 16.1 nM and the mNav1.7/hNav1.7 is reported as 28.6.

The binders below were run against human Nav1.6 voltage-gated sodium channel (human), Q9UQD0 (assay: cell-based or functional assay).
B2 was tested, and the PX hNav1.6 Tonic IC50 was 73.2 nM.
B3 gave a PX hNav1.6 Tonic IC50 of 1160 nM.
In the case of B6, the PX hNav1.6 Tonic IC50 is reported as 250 nM.
For B12, the PX hNav1.6 Tonic IC50 was 877 nM.

These binders were tested against human voltage-gated sodium channel Nav1.5 (human), Q14524 (assay: cell-based or functional assay).
Binder B14 has an IC50, IonWorks Quattro electrophysiology greater than 7 µM.
Work on B15 yielded an IC50, IonWorks Quattro electrophysiology greater than 7 µM.
B16 gave an IC50, IonWorks Quattro electrophysiology greater than 5 µM.
B17 was tested, and the IC50 (IonWorks Quattro) was 2300 nM.
Binder B18 has an IC50, IonWorks Quattro electrophysiology greater than 7 µM.
Work on B19 yielded an IC50, IonWorks Quattro electrophysiology greater than 7 µM.
Work on B20 yielded an IC50, IonWorks Quattro electrophysiology of 15.1 µM.
B21 showed an IC50 (IonWorks Quattro) of 3100 nM.
With B22 the IC50, IonWorks Quattro electrophysiology was greater than 7 µM.
In the case of B23, the IC50, IonWorks Quattro electrophysiology is reported as > 7 µM and 5.4 µM.

Molecular target: T1, human Nav1.7 voltage-gated sodium …
Assay: cell-based or functional assay
Remark: another data set of the same source
B2 was tested, and the PX hNav1.7 Tonic IC50 was 0.779 nM.
B3 showed a PX hNav1.7 Tonic IC50 of 1.58 nM.
With B4 the Nav1.7 PX IC50 was 1.32 nM.
For B5, the Nav1.7 PX IC50 was 0.679 nM.
In the case of B6, the PX hNav1.7 Tonic IC50 is reported as 1.59 nM.
B12 was tested, and the PX hNav1.7 Tonic IC50 was 1.73 nM.

These binders were tested against human voltage-gated sodium channel Nav1.4 (human), P35499 (assay: cell-based or functional assay).
B14 gave an IC50, IonWorks Quattro electrophysiology of 0.09 µM and a Nav1.4/Nav1.7 (ratio of IC50) of 1 fold.
B15 was tested, and the IC50, IonWorks Quattro electrophysiology was greater than 7 µM.
In the case of B16, the IC50, IonWorks Quattro electrophysiology is reported as greater than 5 µM.
In the case of B17, the IC50 (IonWorks Quattro) is reported as 90 nM.
B18 was tested, and the IC50, IonWorks Quattro electrophysiology was 6.1 µM and the Nav1.4/Nav1.7 (ratio of IC50) was 1 fold.
With B19 the IC50, IonWorks Quattro electrophysiology was greater than 7 µM.
B20 showed an IC50, IonWorks Quattro electrophysiology greater than 5 µM and a Nav1.4/Nav1.7 (ratio of IC50) of 28 fold.
B21 showed an IC50 (IonWorks Quattro) of 70 nM.
B22 showed an IC50, IonWorks Quattro electrophysiology greater than 7 µM.
For B23, the IC50, IonWorks Quattro electrophysiology was greater than 7 µM.

These binders were tested against human voltage-gated sodium channel Nav1.3 (human), Q9NY46 (assay: cell-based or functional assay).
For B14, the IC50, IonWorks Quattro electrophysiology was 0.06 µM.
For B15, the IC50, IonWorks Quattro electrophysiology was greater than 7 µM.
B16 showed an IC50, IonWorks Quattro electrophysiology of 4.1 µM.
With B17 the IC50 (IonWorks Quattro) was 70 nM.
For B18, the IC50, IonWorks Quattro electrophysiology was greater than 7 µM.
For B19, the IC50, IonWorks Quattro electrophysiology was greater than 7 µM.
Binder B20 has an IC50, IonWorks Quattro electrophysiology greater than 5 µM.
Work on B21 yielded an IC50 (IonWorks Quattro) of 40 nM.
B22 showed an IC50, IonWorks Quattro electrophysiology of 5.6 µM.
Work on B23 yielded an IC50, IonWorks Quattro electrophysiology greater than 7 µM.

Each binder was assayed against human voltage-gated sodium channel Nav1.7 (human), Q15858 (assay: cell-based or functional assay).
With B14 the IC50, IonWorks Quattro electrophysiology was 0.07 µM.
B15 was tested, and the IC50, IonWorks Quattro electrophysiology was greater than 7 µM.
Work on B16 yielded an IC50, IonWorks Quattro electrophysiology of 0.19 µM.
B17 gave an IC50 (IonWorks Quattro) of 8 nM.
Binder B18 has an IC50, IonWorks Quattro electrophysiology of 5 µM.
For B19, the IC50, IonWorks Quattro electrophysiology was greater than 7 µM.
Binder B20 has an IC50, IonWorks Quattro electrophysiology of 0.18 µM.
B21 gave an IC50 (IonWorks Quattro) of 4 nM.
B22 gave an IC50, IonWorks Quattro electrophysiology of 4.8 µM.
With B23 the IC50, IonWorks Quattro electrophysiology was 4.7 µM and 6.6 µM.
